Results from article PMC10076671, “Spider venom-derived peptide JZTX-14 prevents migration and invasion of breast cancer cells via inhibition of sodium channels” (Frontiers in Pharmacology, 2023).
Where a SMILES comes first, the peptide text is derived from it. Bridges are numbered along the chain shown (N, C = ends).

System: MDA-MB-231 cells
Assay: RNA sequencing, differentially expressed genes
Assay type: cell-based, human
Conditions: 12.5 μM, 48 h vs untreated; |log2 fold change| > 0.585 and p < 0.05; n = 3 samples per group
Experimental: Total RNA was extracted from untreated (C) MDA-MB-231 cells and MDA-MB-231 cells treated with a concentration of 12.5 μM JZTX-14 (GL) for 48 h using TRIzol reagent. RNA concentration was first quantified using a NanoDrop 2000 spectrophotometer and further accurately quantified using an Agilent 2100/4200 for RNA sample mass and concentration. The extracted total RNA was stored at −70°C. The sample mRNA was enriched with magnetic beads with Oligo (dT), and then the mRNA was broken into short fragments which subsequently used as a template to synthesize the first strand of cDNA with six-base random primers. The second cDNA strand was synthesized by adding buffer, dNTPs, and enzymes, and the acquired double-stranded cDNA was purified, end-repaired, A-tailed, and connected to sequencing junctions. Next, the fragment size was selected and the cDNA library was enriched by PCR amplification, followed by accurate qualification of the effective concentration of the library using qPCR. After library quality control, PE150 sequencing was performed using Illumina Novaseq6000 platform (BerryGenomics, Beijing, China).
The reads after rRNA removal were compared with the reference genome using Hisat2 software. Gene level quantification was performed separately for each sample using FeatureCount and combined to obtain the gene expression matrix of all samples. Correlation coefficients between samples were calculated based on the expression values (FPKM) of genes in each sample. Differential expression significance analysis was performed using edgeR with |log2(Fold Change)|> 0.585 and p-value < 0.05 as parameters to obtain the list of different genes for different comparative combinations.

## CC[C@H](C)[C@H](NC(=O)[C@@H]1CSSC[C@@H]2NC(=O)[C@@H]3CCCN3C(=O)[C@@H]3CCCN3C(=O)[C@H](CCC(N)=O)NC(=O)CNC(=O)[C@@H]3CCCN3C(=O)[C@H](Cc3c[nH]cn3)NC(=O)[C@@H]3CSSC[C@H](NC(=O)[C@H](C)NC(=O)[C@H](CC(C)C)NC(=O)CNC(=O)[C@H](CO)NC(=O)[C@H](CSSC[C@H](NC(=O)CN)C(=O)N[C@@H](CCC(N)=O)C(=O)N[C@@H](CCCCN)C(=O)N[C@@H](Cc4ccccc4)C(=O)N[C@@H](Cc4ccccc4)C(=O)N[C@@H](Cc4c[nH]c5ccccc45)C(=O)N[C@@H]([C@@H](C)O)C(=O)N3)NC2=O)C(=O)N[C@@H]([C@@H](C)O)C(=O)N[C@@H](Cc2c[nH]c3ccccc23)C(=O)N2CCC[C@H]2C(=O)N[C@@H]([C@@H](C)O)C(=O)N[C@@H](CCC(=O)O)C(=O)N[C@@H]([C@@H](C)CC)C(=O)N1)C(=O)N[C@@H](CC(C)C)C(N)=O [JZTX-14] (H-GCQKFFWTCHPGQPPCCSGLACTWPTEICIL-NH2; disulfide 2-17, 9-22, 16-29)
  Number of differentially expressed genes: 338
  Number of downregulated genes: 154
  Number of upregulated genes: 184
